Reference: paper PMC3973317, “Solution structure and tandem DNA recognition of the C-terminal effector domain of PmrA from Klebsiella pneumoniae”
The exact form of at least one protein or probe is not confirmed. Where a protein sequence is shown, tags need not be part of it.

Key:
[1] = molecular target: T1, PmrAF (BeF3- activated full-length PmrA) W181G,I220D (Klebsiella pneumoniae) (UniProt W9BNR5); assay: CD; conditions: 273 nm signal decreases from 25.6 to 22.6 mdeg, 20 mM sodium phosphate, 30 mM NaCl, pH 6.0, recombinant protein, residues 1-223, protein details: N-terminal extra Met, C-terminal LEHHHHHH, label: 5' 6-FAM (fluorescence polarization), none (NMR)
T1 sequence (looked up): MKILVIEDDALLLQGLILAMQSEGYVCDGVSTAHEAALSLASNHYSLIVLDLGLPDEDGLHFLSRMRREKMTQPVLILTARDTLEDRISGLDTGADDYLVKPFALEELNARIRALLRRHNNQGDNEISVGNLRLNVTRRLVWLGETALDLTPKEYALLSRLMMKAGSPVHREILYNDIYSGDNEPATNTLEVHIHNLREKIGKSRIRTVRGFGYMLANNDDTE

[2] = molecular target: T1, PmrAF (BeF3- activated full-length PmrA) W181G,I220D (Klebsiella pneumoniae); assay: NMR; conditions: both half-sites bound simultaneously, 20 mM sodium phosphate, 30 mM NaCl, pH 6.0, NMR at 298 K, recombinant protein, residues 1-223, protein details: N-terminal extra Met, C-terminal LEHHHHHH, label: 5' 6-FAM (fluorescence polarization), none (NMR)
[3] = molecular target: T1, PmrAF (BeF3- activated full-length PmrA) W181G,I220D (Klebsiella pneumoniae); assay: fluorescence polarization; conditions: one-site fit, 20 mM sodium phosphate, 30 mM NaCl, pH 6.0, FP with 12 nM 6-FAM DNA (temperature not stated), recombinant protein, residues …, protein details: N-terminal extra Met, C-terminal LEHHHHHH, label: 5' 6-FAM (fluorescence polarization), none (NMR)

What does the source list for “ATTTCTTAATATTATCCTAAGCAAG (double strand) [box1]”?
binding result [1]: binds; binding result [2]: binds; Kd [3]: 45 nM
